Reference: ChEMBL document CHEMBL3098072 (Bioorg Med Chem, 2014)
Converted amounts (≈) assume the structure as drawn.

Test system: Bacillus anthracis
Test: microbe, parasite or virus in culture
Conditions: Sterne 34F2, 20 h

Nc1cccc(-c2cnnc(N3CCC(c4cccc(Cl)c4)C3)n2)c1 (stereo unspecified) and Clc1cccc(C2CCN(c3nncc(-c4ccccc4)n3)C2)c1 (stereo unspecified) are the same in MBC: 128 µM (≈ 45 µg/mL) for the first, 128 µM (≈ 43.1 µg/mL) for the second.

With COc1ccc(-c2cnnc(N3CCC(c4cccc(Cl)c4)C3)n2)cc1OC (stereo unspecified) the MBC was > 128 µM.

Going from Nc1cccc(-c2cnnc(N3CCC(c4cccc(Cl)c4)C3)n2)c1 (stereo unspecified) to Clc1cccc(C2CCN(c3nncc(-c4ccccc4)n3)C2)c1 (stereo unspecified), the MIC falls from 32 µM (≈ 11.3 µg/mL) to 16 µM (≈ 5.39 µg/mL) (2-fold).

For COc1ccc(-c2cnnc(N3CCC(c4cccc(Cl)c4)C3)n2)cc1OC (stereo unspecified), the MIC was 16 µM (≈ 6.35 µg/mL).
